Test results published in patent US5656449A, “Neutral unsymmetrical cyanine dyes” (Molecular Probes, Inc., priority 1995, dated 1997).
Counter-ions that a name gives are not always drawn.

test system: E. Coli ribosomal RNA; assay: Quantum yield of dyes bound to ribosomal RNA (Table 1)

Point of comparison: CCN(CC)c1cc(C=C2Sc3ccccc3N2CC)c2ccccc2n1 [Dye 510], “Quantum Yield (RNA)” value 0.44. Against it:
- CCN1C(=Cc2cc(Sc3ccccc3)nc3ccccc23)Sc2ccccc21 [Dye 509] — lower, 0.07
- Cc1cc(C=C2Sc3ccccc3N2C)nc2ccccc12 [Dye 523-1] — lower, 0.29
- Cc1cc(C=C2Sc3ccccc3N2C)c2ccccc2n1 [Dye 523-2] — lower, 0.28
- CN1C(=Cc2ccnc3ccccc23)Sc2ccccc21 [Dye 798, 4-(2,3-dihydro-3-methyl-(benzo-1,3-thiazol-2-yl)-methylidine)-quinolinium tosylate] — lower, 0.13
- CN1C(=Cc2ccnc3ccccc23)Oc2ccccc21 [Dye 799] — higher, 0.48
- CCN1C(=Cc2ccnc3ccccc23)Sc2ccccc21 [Dye 1266] — lower, 0.12
- COc1ccc2nc(C=C3Sc4ccccc4N3C)ccc2c1 [Dye 1267] — lower, 0.12
- CCCCc1cc(C=C2Sc3ccccc3N2CC)c2ccccc2n1 [Dye 1268] — lower, 0.24
- CCN1C(=Cc2cc(-c3ccccc3)nc3ccccc23)Sc2ccccc21 [Dye 4100] — lower, 0.07
- CN1C(=Cc2ccc3ccccc3n2)Sc2ccccc21 [Dye 7100] — lower, 0.09
- CN1C(=Cc2ccncc2)Sc2ccccc21 [Dye 7101] — lower, 0.12
- CN1C(=Cc2cc[n+](C)c3ccccc23)Oc2ccccc21 [Oxazole Yellow, reference compound] — higher, 0.54
- CN1C(=Cc2cc[n+](C)c3ccccc23)Sc2ccccc21 [Thiazole Orange, reference compound] — lower, 0.15
